Laboratory results reported in article PMC5659129, “Determinants of the Inhibition of DprE1 and CYP2C9 by Antitubercular Thiophenes” (Angewandte Chemie (International Ed. in English), 2017).

By UniProt entry, the sequences of proteins in these tests, tags left out.
UniProt A0R607, whole entry Y313C: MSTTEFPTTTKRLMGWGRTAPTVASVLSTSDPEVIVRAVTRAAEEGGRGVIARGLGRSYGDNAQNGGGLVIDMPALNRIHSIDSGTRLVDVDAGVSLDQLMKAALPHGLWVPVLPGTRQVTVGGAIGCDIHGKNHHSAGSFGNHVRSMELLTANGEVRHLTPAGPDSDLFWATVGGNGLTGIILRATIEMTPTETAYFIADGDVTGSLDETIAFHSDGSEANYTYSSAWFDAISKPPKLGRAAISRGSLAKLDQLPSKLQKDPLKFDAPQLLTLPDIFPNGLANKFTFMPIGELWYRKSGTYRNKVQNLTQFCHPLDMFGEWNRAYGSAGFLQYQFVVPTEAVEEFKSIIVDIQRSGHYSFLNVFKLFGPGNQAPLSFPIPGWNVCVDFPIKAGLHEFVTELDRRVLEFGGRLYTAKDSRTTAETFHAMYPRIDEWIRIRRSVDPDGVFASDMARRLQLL

Molecular target: M. smegmatis DprE1 Y321C (Mycolicibacterium smegmatis, UniProt A0R607, Y313C)
Test: biochemical

Structure (SMILES) | IC50 [nM]
CCOC(=O)NC(=O)c1ccsc1NC(=O)c1nc2ccccc2s1 [TCA1] | 240 ± 52
CCOC(=O)NC(=O)c1ccsc1NC(=O)c1nc2cnccc2s1 [TCA007] | 130 ± 21
